Anti-infective test results gathered from many reports (values: NIAID ChemDB through PubChem).

Common to all: host cell toxicity; cell line: HUMAN SPERM; measure: CC50

Conditions beyond the fields shown may differ between rows. CCn is the concentration with n% toxicity to the cells.

smiles | value
Fc1ccccc1CCNC(=S)Nc1ccc(Br)cn1 | 147 µM
S=C(NCCc1ccccc1Cl)Nc1ccc(Br)cn1 | 147 µM
CCCCCCCCCc1ccc(OCCOCCOCCOCCOCCOCCOCCOCCOCCO)cc1 | 81 µM
COC(=O)[C@H](CC(C)C)NP(=O)(OC[C@H]1O[C@@H](N2C(=O)NC(=O)C(C)(Br)C2OC)C[C@@H]1N=[N+]=[N-])Oc1ccc(Br)cc1 | >300 µM
Cc1cn([C@H]2C[C@H](N)[C@@H](CO)O2)c(=O)[nH]c1=O | >300 µM
Fc1cccc(CCNC(=S)Nc2ccc(Br)cn2)c1 | >500 µM
COC(=O)[C@H](C)NP(=O)(OC[C@H]1O[C@@H](N2C(=O)NC(=O)C(C)(Br)C2OC)C[C@@H]1N=[N+]=[N-])Oc1ccc(Br)cc1 | 4.82 µM
CCCCCCCCCc1ccc(OCCOCCOCCOCCOCCOCCOCCOCCOCCO)cc1 | 81 µM
COC(=O)[C@H](C)NP(=O)(OC[C@H]1O[C@@H](n2cc(C)c(=O)[nH]c2=O)C[C@@H]1N=[N+]=[N-])Oc1ccc(Br)cc1 | 300 µM
COC(=O)[C@H](C)NP(=O)(OC[C@H]1O[C@@H](n2cc(C)c(=O)[nH]c2=O)C[C@@H]1N=[N+]=[N-])Oc1ccc(F)cc1 | >300 µM
COC(=O)[C@H](CCSC)NP(=O)(OC[C@H]1O[C@@H](N2C(=O)NC(=O)C(C)(Br)C2OC)C[C@@H]1N=[N+]=[N-])Oc1ccccc1 | 95 µM
S=C(NCCC1=CCCCC1)Nc1ccc(Br)cn1 | 42 µM
CCCCCCCCCc1ccc(OCCOCCOCCOCCOCCOCCOCCOCCOCCO)cc1 | 76 µM
COC(=O)[C@H](Cc1ccccc1)NP(=O)(OC[C@H]1O[C@@H](N2C(=O)NC(=O)C(C)(Br)C2OC)C[C@@H]1N=[N+]=[N-])Oc1ccccc1 | >300 µM
S=C(NCCC1=CCCCC1)Nc1ccc(Cl)cn1 | 57 µM
COC(=O)[C@H](C)NP(=O)(OC[C@@H]1CC[C@H](N2C(=O)NC(=O)C(C)(Br)C2OC)O1)Oc1ccc(Br)cc1 | 58 µM
COC(=O)[C@H](Cc1c[nH]c2ccccc12)NP(=O)(OC[C@H]1O[C@@H](N2C(=O)NC(=O)C(C)(Br)C2OC)C[C@@H]1N=[N+]=[N-])Oc1ccc([N+](=O)[O-])cc1 | 39 µM
COc1ccc(OC)c(CCNC(=S)Nc2ccc(C(F)(F)F)cn2)c1 | 276 µM
CSCSc1nc(Cc2ccccc2)c(C(C)C)c(=O)[nH]1 | 202 µM
Oc1ccc(CCNC(=S)Nc2ccc(Br)cn2)cc1 | 233 µM
COC1N([C@H]2C[C@H](N)[C@@H](CO)O2)C(=O)NC(=O)C1(C)Br | 12 µM

Repeating the first 2 entries:

{"smiles": "Fc1ccccc1CCNC(=S)Nc1ccc(Br)cn1", "value": "147 µM"}
{"smiles": "S=C(NCCc1ccccc1Cl)Nc1ccc(Br)cn1", "value": "147 µM"}